The target in this assay is T-cell receptor on CD8+ T cells isolated from spleens of LCMV mice (antigen-specific, lymphocytic ch (mouse)).

With “syntac: 986-835 (from UniProt P60568) (peptide-MHC)”, the Kd worked out at 0.388 nM.

A word on the Kd: it is the constant that tells how readily two partners part at equilibrium. A higher Kd goes with lower affinity.
